Measurements reported in PubChem BioAssay AID504761 (Drosophila RNAi Screening Center, 2011).

Aim: 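Insect host genes that dengue virus relies on to spread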 (primary screen)
System: D.Mel-2 cells from Drosophila
Reagents: long dsRNA against Drosophila genes
Challenge: infection with dengue virus type 2; dose and infection time not stated
Measurement: 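Per well on two replicate plates, imaging gave the percent of cells positive for viral envelope protein, ranked by infection, and a nuclear count of cells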
Reading the numbers: infection score: higher = more virus-infected cells; cell count: higher = more cells in the well
Active means: 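Low infection ranks in the two replicates (chance level up to 0.065) followed by a retest with a 1.5-fold or larger significant decrease, p below 0.05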
Meaning of the calls: active = confirmed: knock-down lowers infection; inactive = not picked or not confirmed
The screen tested about 22,000 reagents; this is an unselected part of those with a known target gene and a result. Over the whole deposit, 116 (0.52%) were called active. 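Calls depend on retest data that are not deposited; infection was ranked per plate without normalising between plates; the unit of the infection score is not given.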 The raw values are shown without normalisation. Reagents against one gene are numbered here. The record does not give: the amount of reagent, the time to read-out.

gene knocked down	dsRNA no.	infection score, replicate 1	infection score, replicate 2	cell count, replicate 1	cell count, replicate 2	activity call
CG13689	1	5.48	5.66	6237	6153	inactive
CG3625	1	2.4	3.78	6051	6567	inactive
CG12540	1	21.2	12.4	5452	4748	inactive
Gr36a	1	6.75	2.88	6816	6595	inactive
Gr36a	2	4.38	12.9	6444	6257	inactive
CG15930	1	2.31	3.06	6419	6309	inactive
CG15930	2	12.6	20.5	3071	5116	inactive
CG7342	1	6.51	1.66	6769	6680	inactive
CG12209	1	5.63	12.8	1865	5729	inactive
Naprt	1	7.76	3.86	5849	6018	inactive
Naprt	2	9.06	17	6281	5141	inactive
CG12828	1	1.74	19.2	6425	6103	inactive
slpr	1	3.52	1.63	6251	6191	inactive
slpr	2	1.75	20.7	6351	5385	inactive
CG30065	1	4.29	1.04	5971	6044	inactive
CARPA	1		25.7	360	5164	inactive
CARPA	2	3.12	3.32	5968	6806	inactive
alphaTub67C	1	1.22	2.86	5504	5595	inactive
alphaTub67C	2	10.1	19.8	4019	4546	inactive
CG1910	1	1.13	1.77	5853	6200	inactive
CG30428	1	3.71	4.17	5659	5803	inactive
CG30428	2	22.7	10.5	5242	4312	inactive
Tango2	1	3.26	1.83	6290	7058	inactive
Tango2	2	2.88	3.4	5877	6432	inactive
lectin-21Ca	1	3.58	1.95	6422	6450	inactive
CG15172	1	8.67	5.82	5385	6721	inactive
CG15172	2	8.97	16.5	6712	6615	inactive
Dlc90F	1	3.09	3.03	5928	6402	inactive
Coq9	1	1.34	1.59	6866	6935	inactive
CG14841	1	1.37	6.76	6415	6822	inactive
CG14841	2	4.87	4.47	6956	6337	inactive
NT1	1	2.58	1.35	6058	6021	inactive
NT1	2	0.69		5509	357	inactive
CG14966	1	0.49	2.96	6268	6118	inactive
CG34002	1	1.66	0.86	6020	6063	inactive
CG34002	2	3.22	0.42	6126	6667	inactive
CG34002	3	2.99	6.98	6757	6391	inactive
Ork1	1	9.02	6.41	6256	6587	inactive
CG14852	1	4.15	7.56	6029	6458	inactive
CG14852	2	3.09	2.31	5210	5589	inactive
CG18269	1	7.01	4.84	5778	5949	inactive
Acyp	1	6.24	3.08	5605	5707	inactive
rt	1	2.22	4.34	5731	5917	inactive
CG30411	1	1.4	0.4	6072	5816	inactive
CG30411	2	5.29	2.86	5364	6581	inactive
Det	1	3.72	6.36	6452	6586	inactive
Atg10	1	14.3	17.4	5656	5144	inactive
Vps13	1	15.2	3.74	5728	6518	inactive
Vps13	2	0.41	20.4	485	6422	inactive
CG14312	1	9.55	0.74	4042	7036	inactive
rdgBbeta	1	20.9	11.4	6250	7054	inactive
CG14478	1	10.1	19.3	5656	5499	inactive
crim	1	18.8	8.15	4469	1927	inactive
CG30076	1	1.36	1.04	6375	6413	inactive
CG30076	2	7.52	22	412	4929	inactive
Myo10A	1	0.88	5.13	6358	6862	inactive
Myo10A	2	5.9	6.58	5748	5882	inactive
CG3434	1	10.6	2.34	6432	6411	inactive

Targets above whose gene name starts with M or m:
gene knocked down	dsRNA no.	infection score, replicate 1	infection score, replicate 2	cell count, replicate 1	cell count, replicate 2	activity call
Myo10A	1	0.88	5.13	6358	6862	inactive
Myo10A	2	5.9	6.58	5748	5882	inactive
